From patent publication USRE39240E1 (priority 1993, dated 2006)

The chains behind the UniProt entries cited, without tags or fusion partners. Residues count along the entry.
UniProt P02716, 25-520 limits assumed: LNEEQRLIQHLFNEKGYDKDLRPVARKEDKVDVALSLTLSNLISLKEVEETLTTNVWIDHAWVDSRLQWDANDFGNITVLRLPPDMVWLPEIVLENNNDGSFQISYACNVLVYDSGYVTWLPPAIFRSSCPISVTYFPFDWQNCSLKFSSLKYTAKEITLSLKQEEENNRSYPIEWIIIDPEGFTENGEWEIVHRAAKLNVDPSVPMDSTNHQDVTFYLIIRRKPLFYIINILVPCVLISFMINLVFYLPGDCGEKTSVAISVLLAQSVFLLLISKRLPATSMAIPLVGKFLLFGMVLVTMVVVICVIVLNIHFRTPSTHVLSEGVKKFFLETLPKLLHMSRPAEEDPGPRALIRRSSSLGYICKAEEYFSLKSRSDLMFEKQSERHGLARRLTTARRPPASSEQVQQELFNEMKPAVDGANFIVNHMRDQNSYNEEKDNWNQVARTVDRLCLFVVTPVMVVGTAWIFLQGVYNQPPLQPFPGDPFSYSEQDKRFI
UniProt P04756, 21-457 limits assumed: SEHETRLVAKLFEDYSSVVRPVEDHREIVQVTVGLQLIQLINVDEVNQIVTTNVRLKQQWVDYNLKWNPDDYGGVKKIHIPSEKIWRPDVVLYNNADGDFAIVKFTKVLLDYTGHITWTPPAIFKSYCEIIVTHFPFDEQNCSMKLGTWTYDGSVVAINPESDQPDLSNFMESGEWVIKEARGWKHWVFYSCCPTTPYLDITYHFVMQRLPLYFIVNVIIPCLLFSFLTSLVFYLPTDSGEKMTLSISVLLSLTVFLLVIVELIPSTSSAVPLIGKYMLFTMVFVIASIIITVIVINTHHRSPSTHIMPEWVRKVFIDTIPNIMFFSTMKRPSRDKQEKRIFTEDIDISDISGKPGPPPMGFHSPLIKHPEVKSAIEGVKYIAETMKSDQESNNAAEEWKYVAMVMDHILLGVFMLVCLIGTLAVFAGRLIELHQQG
UniProt P20782, 21-493 limits assumed: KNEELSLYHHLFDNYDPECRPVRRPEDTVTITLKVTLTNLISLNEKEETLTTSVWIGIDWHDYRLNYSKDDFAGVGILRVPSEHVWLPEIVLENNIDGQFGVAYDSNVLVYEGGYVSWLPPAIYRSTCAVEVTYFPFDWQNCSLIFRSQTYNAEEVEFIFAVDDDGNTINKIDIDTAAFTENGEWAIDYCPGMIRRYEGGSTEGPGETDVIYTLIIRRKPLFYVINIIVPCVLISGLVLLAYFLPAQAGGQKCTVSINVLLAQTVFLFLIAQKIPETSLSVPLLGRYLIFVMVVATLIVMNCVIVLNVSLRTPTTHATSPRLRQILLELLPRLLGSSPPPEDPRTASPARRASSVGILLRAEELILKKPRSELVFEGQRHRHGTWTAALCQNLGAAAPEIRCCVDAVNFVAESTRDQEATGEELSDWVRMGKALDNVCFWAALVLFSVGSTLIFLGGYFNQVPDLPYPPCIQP
UniProt P09690, 24-501 partner limits assumed: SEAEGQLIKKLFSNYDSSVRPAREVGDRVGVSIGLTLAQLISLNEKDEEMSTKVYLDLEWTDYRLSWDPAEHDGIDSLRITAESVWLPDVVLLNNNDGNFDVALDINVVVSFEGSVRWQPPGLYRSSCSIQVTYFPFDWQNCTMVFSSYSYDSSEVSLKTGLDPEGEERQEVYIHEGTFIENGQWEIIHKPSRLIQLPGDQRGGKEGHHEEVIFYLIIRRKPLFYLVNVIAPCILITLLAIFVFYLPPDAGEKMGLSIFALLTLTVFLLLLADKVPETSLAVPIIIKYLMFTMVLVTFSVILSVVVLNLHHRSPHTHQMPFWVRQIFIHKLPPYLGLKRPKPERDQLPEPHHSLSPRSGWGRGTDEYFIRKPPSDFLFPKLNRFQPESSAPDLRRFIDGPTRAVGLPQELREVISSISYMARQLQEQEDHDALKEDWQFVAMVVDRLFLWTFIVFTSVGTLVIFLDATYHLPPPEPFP

Molecular target: acetylcholine receptor (Mus musculus, UniProt P02716+P04756+P20782)
Test: binding to and inhibition of the acetylcholine receptor
Conditions: thereby causing paralysis and thereafter death

H-Gly-Cys-Cys-Gly-Ser-Tyr-Pro-Asn-Ala-Ala-Cys-His-Pro-Cys-Ser-Cys-Lys-Asp-Arg-4Hyp-Ser-Tyr-Cys-Gly-Gln-NH2
effect on the acetylcholine receptor: binds to and inhibits the function of the acetylcholine receptor
